# Values quoted from earlier work in patent US20230201290A1, “TGF-BETA INHIBITION, AGENTS AND COMPOSITION THEREFOR” (GMP BIOTECHNOLOGY LIMITED, priority 2020, published 2023).
# System: SARS-CoV replicon
# Conditions: cited from earlier work
substance,measurement,value
IFN-β 1a: interferon,reduction of luciferase activity,46%
